Positions that govern dimerization of the HIV-1 5' RNA

Sequence of the HIV-1 NL4-3 5' RNA, positions 1 to 437, as numbered in the source:
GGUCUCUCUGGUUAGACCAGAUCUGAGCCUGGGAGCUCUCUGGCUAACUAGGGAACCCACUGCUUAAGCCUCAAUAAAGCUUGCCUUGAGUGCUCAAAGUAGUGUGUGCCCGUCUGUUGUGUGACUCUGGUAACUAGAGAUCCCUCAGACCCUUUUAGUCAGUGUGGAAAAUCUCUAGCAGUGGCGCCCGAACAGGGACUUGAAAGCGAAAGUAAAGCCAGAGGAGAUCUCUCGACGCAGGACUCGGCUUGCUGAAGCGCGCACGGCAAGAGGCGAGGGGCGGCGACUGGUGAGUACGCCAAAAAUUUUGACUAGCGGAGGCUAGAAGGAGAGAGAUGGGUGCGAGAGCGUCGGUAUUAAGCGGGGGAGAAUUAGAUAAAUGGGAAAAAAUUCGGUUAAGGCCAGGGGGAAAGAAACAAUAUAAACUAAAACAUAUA

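Mutant RNA libraries with 1G, 2G or 3G starts, with or without cap, were folded at 37 °C for 30 min. Monomer and dimer bands were cut from native gels after folding in high salt (300 mM KCl, 5 mM MgCl2) or low salt (40 mM KCl, 0.1 mM MgCl2). Mutation frequencies in the two bands give Kdimer.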

Scale: median log2 Kdimer over the changes at a position; positive = changes inhibit dimerization, negative = changes enhance it. One numbering serves 1G, 2G and 3G. A position is written with its base.

position | domain | 1G capped high-salt | 1G capped low-salt | 1G uncapped high-salt | 1G uncapped low-salt
A235 | none | -1.02 | -1.47 | -0.82 | -1.22
C236 | none | 2.55 | 1.73 | 2.03 | 1.41
G237 | none | 1.11 | 0.75 | 0.70 | 0.66
C238 | none | 2.54 | 2.14 | 2.78 | 1.59
A239 | none | -0.41 | -0.36 | -0.15 | -0.31
G240 | none | -0.36 | -0.41 | -0.01 | -0.36
G241 | none | -0.21 | -0.60 | -0.15 | -0.57
A242 | none | 0.80 | 1.32 | 1.38 | 1.52
C243 | SL1 | 0.60 | 1.15 | 0.98 | 1.06
U244 | SL1 | 0.49 | 1.48 | 1.06 | 1.98
C245 | SL1 | 0.91 | 1.47 | 1.39 | 1.61
G246 | SL1 | 1.16 | 1.69 | 1.49 | 1.87
G247 | SL1 | -0.76 | -1.15 | -0.56 | -1.19
C248 | SL1 | 0.72 | 0.57 | 0.99 | 0.71
U249 | SL1 | 1.23 | 1.61 | 1.72 | 1.77
U250 | SL1 | 2.55 | 2.53 | 2.76 | 1.74
G251 | SL1 | 3.65 | 3.86 | 6.76 | 4.50
C252 | SL1 | 3.11 | 3.09 | 4.65 | 3.21
U253 | SL1 | 1.85 | 1.96 | 2.44 | 2.14
G254 | SL1 | 2.13 | 1.86 | 2.03 | 2.11
A255 | SL1 | -0.24 | -0.53 | -0.26 | -0.47
A256 | SL1 | 0.87 | 1.74 | 1.18 | 1.90
G257 | SL1 | 3.37 | 0.68 | 2.95 | 1.31
C258 | SL1 | 3.93 | 3.66 | 4.50 | 3.66
G259 | SL1 | 4.39 | 3.05 | 5.53 | 4.27
C260 | SL1 | 3.91 | 3.11 | 5.15 | 4.08
G261 | SL1 | 4.35 | 3.01 | 6.73 | 4.47
C262 | SL1 | 3.23 | 2.82 | 4.31 | 3.46
A263 | SL1 | 0.01 | 1.14 | 0.34 | 1.12
C264 | SL1 | 1.77 | 2.82 | 2.46 | 3.09
G265 | SL1 | 2.64 | 2.75 | 3.20 | 3.09
G266 | SL1 | 4.32 | 2.82 | 6.49 | 4.13
C267 | SL1 | 3.50 | 3.21 | 4.48 | 3.42
A268 | SL1 | 3.00 | 2.56 | 3.02 | 3.12
A269 | SL1 | 1.62 | 1.59 | 1.61 | 1.60
G270 | SL1 | 1.47 | 0.68 | 1.05 | 0.75
A271 | SL1 | -0.48 | -0.40 | -0.10 | -0.34
G272 | SL1 | -0.59 | -0.42 | -0.19 | -0.44
G273 | SL1 | -0.58 | -0.57 | -0.50 | -0.58
C274 | SL1 | 0.53 | 0.89 | 0.37 | 1.03
G275 | SL1 | 2.55 | 1.90 | 2.60 | 2.41
A276 | SL1 | 3.03 | 2.81 | 3.61 | 2.99
G277 | SL1 | 2.57 | 2.30 | 2.44 | 2.38
G278 | none | 0.38 | 0.43 | 0.43 | 0.43
G279 | none | -0.26 | 0.04 | 0.19 | -0.07
G280 | none | -0.07 | -0.43 | -0.22 | -0.62
C281 | none | 0.88 | 0.40 | 0.68 | 0.37
G282 | none | 0.43 | 0.85 | 0.71 | 0.93
G283 | SL2 | -0.13 | -0.28 | 0.09 | -0.09
C284 | SL2 | 0.37 | 0.58 | 0.59 | 0.54
G285 | SL2 | 0.97 | 1.30 | 1.22 | 1.17
A286 | SL2 | 0.45 | -0.02 | 0.48 | 0.35
C287 | SL2 | -0.32 | -0.55 | -0.05 | -0.61
U288 | SL2 | -0.25 | -0.05 | -0.04 | 0.03
G289 | SL2 | 0.72 | 0.16 | 0.31 | 0.14
G290 | SL2 | 0.38 | 0.03 | 0.11 | 0.18
U291 | SL2 | -0.20 | -0.29 | 0.12 | -0.29

A selection of 7 entries from above:

| position | domain | 1G capped high-salt | 1G capped low-salt | 1G uncapped high-salt | 1G uncapped low-salt |
|---|---|---|---|---|---|
| G270 | SL1 | 1.47 | 0.68 | 1.05 | 0.75 |
| G290 | SL2 | 0.38 | 0.03 | 0.11 | 0.18 |
| C238 | none | 2.54 | 2.14 | 2.78 | 1.59 |
| G283 | SL2 | -0.13 | -0.28 | 0.09 | -0.09 |
| G272 | SL1 | -0.59 | -0.42 | -0.19 | -0.44 |
| A276 | SL1 | 3.03 | 2.81 | 3.61 | 2.99 |
| A256 | SL1 | 0.87 | 1.74 | 1.18 | 1.90 |

Data from the supplement of Ye et al. 2022, doi:10.1038/s41594-022-00746-2.